According to article PMC4894688:
For at least one entry, the source does not settle the construct or the ends of the probe. A negative result means that nothing was seen under these conditions.

Assays:
[1] = target: His6-GcsR (Pseudomonas aeruginosa PAO1) (UniProt Q9I133); test: EMSA; conditions: 200 nM protein; EMSA: 25 mM Tris-acetate pH 8.0, 8 mM Mg acetate, 10 mM KCl, 1 mM DTT, 30 min at 30 C, 2 nM probe; native PAGE; recombinant protein; protein details: N-terminal His6; label: 5' Cy5 (unlabeled as competitor); probe letters rebuilt from the primers and the genome; part of a longer molecule
[2] = target: His6-GcsR (Pseudomonas aeruginosa PAO1) (UniProt Q9I133); test: competition with a labelled probe; conditions: 100 nM unlabeled PPA5530 vs Cy5-PgcvH2; EMSA: 25 mM Tris-acetate pH 8.0, 8 mM Mg acetate, 10 mM KCl, 1 mM DTT, 30 min at 30 C, 2 nM probe; native PAGE; recombinant protein; protein details: N-terminal His6; label: 5' Cy5 (unlabeled as competitor); probe letters rebuilt from the primers and the genome; part of a longer molecule

Does “CGCGGGAAAGCCGCGTGGGGACTGGGTTGGAAGAGGAGCGGGGTGGTCTTGGCCGAGCGGGAGTCCGCCGACCGGGAGTGTGGATAAGCGGAAATCCGCCGATCCTTCAGGGCAAAGGGTCCGATAGCGACACCAGGTGCAGGCGAGGGCGAATAACCGCAGCGTGGTTATCCGCCGATTCGACGGCAGGCCGGGATCGCTTGGCTCTCAGTG (double strand) [PPA5530]” bind [1]?
Result: no binding

Does “CGCGGGAAAGCCGCGTGGGGACTGGGTTGGAAGAGGAGCGGGGTGGTCTTGGCCGAGCGGGAGTCCGCCGACCGGGAGTGTGGATAAGCGGAAATCCGCCGATCCTTCAGGGCAAAGGGTCCGATAGCGACACCAGGTGCAGGCGAGGGCGAATAACCGCAGCGTGGTTATCCGCCGATTCGACGGCAGGCCGGGATCGCTTGGCTCTCAGTG (double strand) [PPA5530]” bind [2]?
Result: no binding
